Assay results: article PMC9231222 (Viruses, 2022)

Tested on: BVDV
Test: Antiviral assay: inhibition of BVDV-induced cytopathogenicity in MDBK cells
Type: cell-based
Conditions: selectivity index CC50/EC50 (MDBK / BVDV)

| SMILES | S.I. | S.I. (listed as NM108) | S.I. (listed as ribavirin) |
| --- | --- | --- | --- |
| COc1cc(C(=O)Nc2ccc(-c3nc4ccccc4[nH]3)cc2)cc(OC)c1OC [Compound 1c, N-(4-(1H-Benzo[d]imidazol-2-yl)phenyl)-3,4,5-trimethoxybenzamide] | 12.9 | – | – |
| COc1cc(C(=O)Nc2ccc(-c3nc4cc(Cl)ccc4[nH]3)cc2)cc(OC)c1OC [Compound 2c, N-(4-(5-Chloro-1H-benzo[d]imidazol-2-yl)phenyl)-3,4,5-trimethoxybenzamide] | 500 | – | – |
| O=C(Nc1ccc(-c2nc3cc(Cl)ccc3[nH]2)cc1)c1ccc([N+](=O)[O-])cc1 [Compound 2d, N-(4-(5-Chloro-1H-benzo[d]imidazol-2-yl)phenyl)-4-nitrobenzamide] | >52.6 | – | – |
| COc1cc(C(=O)Nc2ccc(-c3nc4cc(Cl)c(Cl)cc4[nH]3)cc2)cc(OC)c1OC [Compound 3c, N-(4-(5,6-Dichloro-1H-benzo[d]imidazol-2-yl)phenyl)-3,4,5-trimethoxybenzamide] | 21.5 | – | – |
| O=C(Nc1ccc(-c2nc3cc(Cl)c(Cl)cc3[nH]2)cc1)c1ccc([N+](=O)[O-])cc1 [Compound 3d, N-(4-(5,6-Dichloro-1H-benzo[d]imidazol-2-yl)phenyl)-4-nitrobenzamide] | >1.9 | – | – |
| COc1cc(C(=O)Nc2ccc(-c3nc4cc(F)ccc4[nH]3)cc2)cc(OC)c1OC [Compound 4c, N-(4-(5-Fluoro-1H-benzo[d]imidazol-2-yl)phenyl)-3,4,5-trimethoxybenzamide] | >2.4 | – | – |
| O=C(Nc1ccc(-c2nc3cc(F)ccc3[nH]2)cc1)c1ccc([N+](=O)[O-])cc1 [Compound 4d, N-(4-(5-Fluoro-1H-benzo[d]imidazol-2-yl)phenyl)-4-nitrobenzamide] | >12.7 | – | – |
| COc1cc(C(=O)Nc2ccc(-c3nc4cc(F)c(F)cc4[nH]3)cc2)cc(OC)c1OC [Compound 5c, N-(4-(5,6-Difluoro-1H-benzo[d]imidazol-2-yl)phenyl)-3,4,5-trimethoxybenzamide] | >71.4 | – | – |
| O=C(Nc1ccc(-c2nc3cc(F)c(F)cc3[nH]2)cc1)c1ccc([N+](=O)[O-])cc1 [Compound 5d, N-(4-(5,6-Difluoro-1H-benzo[d]imidazol-2-yl)phenyl)-4-nitrobenzamide] | >27.8 | – | – |
| COc1cc(C(=O)Nc2ccc(-c3nc4cc(C)ccc4[nH]3)cc2)cc(OC)c1OC [Compound 6c, N-(4-(5-Methyl-1H-benzo[d]imidazol-2-yl)phenyl)-3,4,5-trimethoxybenzamide] | >434.8 | – | – |
| COc1cc(C(=O)Nc2ccc(-c3nc4cc(C)c(C)cc4[nH]3)cc2)cc(OC)c1OC [Compound 7c, N-(4-(5,6-Dimethyl-1H-benzo[d]imidazol-2-yl)phenyl)-3,4,5-trimethoxybenzamide] | >333.3 | – | – |
| C[C@@]1(O)[C@H](O)[C@@H](CO)O[C@H]1n1cnc2c(=O)[nH]c(N)nc21 [NM 108, 2′-C-methylguanosine, reference compound] | >66.7 | 66.7 | – |
| NC(=O)c1ncn([C@@H]2O[C@H](CO)[C@@H](O)[C@H]2O)n1 [Ribavirin, ribavirin, reference compound] | >5.6 | – | 5.6 |
